Compound potency records, mixed from different reports. Data source: NIAID ChemDB in PubChem.

Common to all: tests in culture; organism: Herpes simplex virus 1; method: plaque count; read-out: EC50

ECn is the concentration giving n% inhibition of infection, replication or growth.

structure | cells | strain or isolate | setting | result
NCC(O)c1ccc(O)c(O)c1 | HEL | KOS |  | 49 µg/mL
CCSC(=O)NC[C@H]1O[C@@H](n2cc(I)c(=O)[nH]c2=O)C[C@@H]1O | BHK |  |  | >0.2 µM
O=c1c2cnn(-c3ccccc3)c2nc2n(-c3ccccc3)c(=S)[nH]n12 | VERO |  |  | 66 µg/mL
COC(=O)[C@H](C)NP(=O)(OC[C@H]1C/C1=C\n1cnc2c(=O)[nH]c(N)nc21)Oc1ccccc1 | VERO |  |  | >100 µM
O=c1c2cnn(-c3ccccc3)c2nc(Nc2ccccc2)n1/N=C/c1ccc(Cl)cc1 | VERO |  |  | 41 µg/mL
Nc1nc(=S)n([C@H]2C[C@H](O)[C@@H](CO)O2)cc1I | MRC-5 | KOS |  | 29.4 µM
CC(C)C(=O)O[C@H]1C[C@H](n2cc(/C=C/Br)c(=O)[nH]c2=O)O[C@@H]1COP1(=O)OCc2ccccc2O1 | VERO | B2006 (TK-) |  | >128 µg/mL
Cc1cc(=Nc2ccc3c(c2)c(N)cc(C)[n+]3C)nc(N)n1C | HeLa | KOS |  | 60 µM
CC1OP(=O)(OC[C@H]2O[C@@H](n3cc(/C=C/Br)c(=O)[nH]c3=O)C[C@@H]2O)Oc2cccc(Cl)c21 | VERO | B2006 (TK-) |  | >128 µg/mL
[N-]=[N+]=CC(=O)CC[C@H](N)C(=O)O | VERO | MacIntyre |  | 8 µM
COc1cc(O)c2c(=O)c3cccc(O)c3n(C)c2c1OC | HEF |  |  | 0.56 µg/mL
N/C(=N/O)c1cn([C@H]2C[C@H](O)[C@@H](CO)O2)c2ncnc(N)c12 | VERO | KOS |  | 60 µM
COc1cc2c(cc1-c1coc3cc4occc4cc3c1=O)OCO2 | VERO | KOS |  | 25.5 µg/mL
CC(=O)O[C@H]1C[C@H](n2cc(I)c(=O)[nH]c2=O)O[C@@H]1CN=[N+]=[N-] | BHK |  |  | >1 µM
O=c1[nH]c(=O)n([C@H]2C[C@H](O)[C@@H](CO)O2)cc1/C=C/Br | MRC-5 |  |  | <0.05 µM
Cc1nn2c(=O)c3cnn(-c4ccccc4)c3nc2n1-c1ccccc1 | VERO |  |  | 31 µg/mL
Cc1cn([C@@H]2O[C@H](CO)[C@@H](O)[C@@H]2O)c(=O)[nH]c1=O | HEL |  |  | 1.78 µM
O=C1c2cc3ccoc3cc2O[C@@H]2COc3cc4c(cc3[C@]12O)OCO4 | VERO | KOS |  | >50 µg/mL
Cc1cccc2c1OP(=O)(OC[C@H]1O[C@@H](n3cc(/C=C/Br)c(=O)[nH]c3=O)C[C@@H]1OC(=O)[C@H](C)N)OC2 | VERO | KUPKA (TK+) |  | 0.34 µg/mL
O=c1c2cnn(-c3ccccc3)c2nc2n(-c3ccccc3)cnn12 | VERO |  |  | 33 µg/mL
C=Cc1cn([C@H]2C[C@H](O)[C@@H](CO)O2)c(=O)[nH]c1=O | HEL |  |  | 0.43 µM
Cc1cccc2c1OP(=O)(OC[C@H]1O[C@@H](n3cc(/C=C/Br)c(=O)[nH]c3=O)C[C@@H]1OC(=O)C(C)(C)C)OC2 | VERO | KUPKA (TK+) |  | 5.45 µg/mL
COc1c2c(cc3ccoc13)C(=O)[C@@]1(O)c3cc4c(cc3OC[C@H]1O2)OCO4 | VERO | KOS |  | >50 µg/mL
COC(=O)[C@H](C)NP(=O)(OC[C@H]1C/C1=C/n1cnc2c(=O)[nH]c(N)nc21)Oc1ccccc1 | HFF |  |  | 22.1 µM
N/C(=N/O)c1cn([C@@H]2O[C@H](CO)[C@@H](O)[C@@H]2O)c2ncnc(N)c12 | VERO | KOS |  | 80 µM
COc1cc(NC(=O)Nc2cccc(CNC(=O)O[C@H]3CCOC3)c2)ccc1-c1cnco1 | VERO | E-377 | 6 d | 6.3 µM
CC(=O)O[C@@H]1CC2C[C@@H](OC(=O)c3ccccc3)[C@H]3[C@](C)(C(=O)O)CCC[C@]3(C)[C@]23CC[C@]1(C)C3 | HeLa | F |  | 8.6 µM
C[CH2][Sn]([Cl])([Cl])[CH2]C | HFF | F |  | 3.1 µg/mL
O=c1[nH]c(=S)n([C@@H]2O[C@H](CO)[C@@H](O)[C@@H]2O)cc1Cl | MRC-5 | TK- |  | >340 µM
CC(=O)NC[C@H]1O[C@@H](n2cc(I)c(=O)[nH]c2=O)C[C@@H]1O | BHK |  |  | >11 µM
NC(=O)c1cn([C@@H]2O[C@H](CO)[C@@H](O)[C@@H]2O)c2ncnc(N)c12 | VERO | KOS |  | 8 µM
CCC[CH2][Sn]([Cl])([CH2]CCC)[CH2]CCC | HFF | F |  | <1 µg/mL
O=c1[nH]cccc1O | HEL | B2006 (TK-) |  | >200 µg/mL
CSc1nsc(-c2ccccc2)c1C#N | VERO | F |  | >20 µg/mL
Cc1cccc2c1OP(=O)(OC[C@H]1O[C@@H](n3cc(/C=C/Br)c(=O)[nH]c3=O)C[C@@H]1OC(=O)C(C)C)OC2 | VERO | B2006 (TK-) |  | >128 µg/mL
CCCCCCC[CH2][Sn]([Cl])([Cl])[Cl] | HFF | F |  | 110 µg/mL
N#Cc1c(N2CCCC2)nsc1-c1ccccc1 | VERO | F |  | >7 µg/mL
CC[C@H](C)[C@H](N)C(=O)O[C@H]1C[C@H](n2cc(/C=C/Br)c(=O)[nH]c2=O)O[C@@H]1COP1(=O)OCc2cccc(C)c2O1 | VERO | KUPKA (TK+) |  | 0.4 µg/mL
COC(=O)[C@]1(C)CCC[C@@]2(C)[C@H]1[C@H](OC(=O)c1ccccc1)CC1C[C@@H](O)[C@]3(C)CC[C@]12C3 | HeLa | F |  | 7.7 µM
C[CH2][Sn]([Cl])([Cl])[CH2]C.c1ccc(-c2nc3ccccc3[nH]2)nc1 | HFF | F |  | 8.1 µg/mL
NC(=O)c1nc(F)c[nH]c1=O | VERO |  |  | >100 µg/mL
CCOC(=O)CSc1nsc(-c2ccccc2)c1C#N | VERO | F |  | >200 µg/mL
O=c1[nH]c(=O)n([C@@H]2O[C@H](CO)[C@@H](O)[C@@H]2F)cc1I | HEL |  |  | 0.073 µM
CCCSc1nsc(-c2ccccc2)c1C(=O)OC | VERO | F |  | >50 µg/mL
O=c1[nH]c(=O)n([C@@H]2C[C@@H](O)[C@H](CO)O2)cc1/C=C/Br | MRC-5 |  |  | 3.2 µM
[Cl][Sn]([Cl])([c]1ccccc1)[c]1ccccc1 | HFF | F |  | 0.3 µg/mL
CC(C)C(=O)NC[C@H]1O[C@@H](n2cc(I)c(=O)[nH]c2=O)C[C@@H]1OC(=O)C(C)C | BHK |  |  | >1 µM
[Cl][Sn]([c]1ccccc1)([c]1ccccc1)[c]1ccccc1 | HFF | F |  | <0.5 µg/mL
Cc1cn([C@@H]2O[C@H](CO)[C@@H](O)[C@@H]2O)c(=S)[nH]c1=O | MRC-5 | KOS |  | 109 µM
C[C@@]1(CO)[C@H](O)CC[C@@]2(C)[C@H]1CC[C@H]1C[C@@H]3C[C@@]12CC[C@]3(O)CO | VERO |  |  | 100 µg/mL
COC(=O)[C@H](C)NP(=O)(OC[C@H]1C/C1=C/n1cnc2c(N)nc(N)nc21)Oc1ccccc1 | VERO |  |  | 30 µM
CCc1cn([C@@H]2O[C@H](CO)[C@@H](O)[C@@H]2O)c(=O)[nH]c1=O | HEL |  |  | 7.4 µM
CCOC(=O)c1cc(O)c(O)c(O)c1 | HEL | B2006 (TK-) |  | 7.4 µg/mL
Cc1cccc2c1OP(=O)(OC[C@H]1O[C@@H](n3cc(/C=C/Br)c(=O)[nH]c3=O)C[C@@H]1OC(=O)[C@@H](N)C(C)C)OC2 | VERO | KUPKA (TK+) |  | 0.45 µg/mL
COC(=O)[C@H](C)NP(=O)(OC[C@H]1C/C1=C\n1cnc2c(N)nc(N)nc21)Oc1ccccc1 | VERO |  |  | >100 µM
C=Cc1cn([C@@H]2O[C@H](CO)[C@@H](O)[C@@H]2F)c(=O)[nH]c1=O | HEL |  |  | 0.074 µM
CC(C)OC1[C@H](n2ccc(=O)[nH]c2=O)O[C@H](COS(=O)(=O)NC(=O)O[C@H]2O[C@H](CO)[C@@H](O)[C@H](O)[C@H]2O)[C@H]1OC(C)C | HeLa | KOS |  | >350 µM
O=c1[nH]c(=S)n([C@H]2C[C@H](O)[C@@H](CO)O2)cc1F | MRC-5 | KOS |  | 0.61 µM
CC(C)C(=O)NC[C@H]1O[C@@H](n2cc(I)c(=O)[nH]c2=O)C[C@@H]1O | BHK |  |  | >1 µM
O=C(NS(=O)(=O)OC[C@H]1O[C@@H](n2ccc(=O)[nH]c2=O)[C@H](O)[C@@H]1O)O[C@H]1O[C@H](COC(=O)c2ccccc2)[C@@H](OC(=O)c2ccccc2)[C@H](OC(=O)c2ccccc2)[C@H]1OC(=O)c1ccccc1 | HeLa | KOS |  | 75 µM
Nc1nc2c(ncn2COCCO)c(=O)[nH]1 | HeLa |  |  | 0.1 µM
CN(C)c1nsc(-c2ccccc2)c1C#N | VERO | F |  | >15 µg/mL
CC(=O)OC[C@]1(C)CCC[C@@]2(C)[C@H]1[C@H](O)CC1C[C@H](OC(C)=O)[C@]3(C)CC[C@]12C3 | HeLa | F |  | 59.1 µM
O=c1[nH]c(=O)n([C@H]2C[C@H](O)[C@@H](CO)O2)cc1I | HEL |  |  | 2.63 µM
NC(=O)O[C@H]1O[C@H](COCc2ccccc2)[C@@H](OCc2ccccc2)[C@H](OCc2ccccc2)[C@H]1OCc1ccccc1 | HeLa | KOS |  | >350 µM
CC(=O)CCC(=O)O[C@H]1C[C@H](n2cc(/C=C/Br)c(=O)[nH]c2=O)O[C@@H]1COP1(=O)OCc2cccc(C)c2O1 | VERO | B2006 (TK-) |  | >128 µg/mL
COC(=O)c1c(SC)nsc1-c1ccccc1 | VERO | F |  | >100 µg/mL
C[CH2][Sn]([Cl])([Cl])[CH2]C.c1cnc2c(c1)ccc1cccnc12 | HFF | F |  | 7.6 µg/mL

For reference, 6 entries again:

| structure | cells | strain or isolate | setting | result |
|---|---|---|---|---|
| C[C@@]1(CO)[C@H](O)CC[C@@]2(C)[C@H]1CC[C@H]1C[C@@H]3C[C@@]12CC[C@]3(O)CO | VERO |  |  | 100 µg/mL |
| N#Cc1c(N2CCCC2)nsc1-c1ccccc1 | VERO | F |  | >7 µg/mL |
| CC(=O)CCC(=O)O[C@H]1C[C@H](n2cc(/C=C/Br)c(=O)[nH]c2=O)O[C@@H]1COP1(=O)OCc2cccc(C)c2O1 | VERO | B2006 (TK-) |  | >128 µg/mL |
| CC(C)C(=O)NC[C@H]1O[C@@H](n2cc(I)c(=O)[nH]c2=O)C[C@@H]1OC(=O)C(C)C | BHK |  |  | >1 µM |
| [N-]=[N+]=CC(=O)CC[C@H](N)C(=O)O | VERO | MacIntyre |  | 8 µM |
| CCOC(=O)CSc1nsc(-c2ccccc2)c1C#N | VERO | F |  | >200 µg/mL |

Conditions beyond the fields shown may differ between rows. Blank or dashed fields: not listed here.